{"source": "patent US20160152689", "about": "“Compositions and methods for inhibiting thrombogenesis” (published 2016)", "target": "Factor XIa (FXIa), human, human, P03951 19-625", "assay": "chromogenic substrate assay, inhibition of protease activity"}
{"substance": "BF01 (Fasxiator), native Kunitz-type protease inhibitor purified from Bungarus fasciatus venom", "values": [{"measurement": "result", "result": "binds"}]}
{"substance": "BF02, isoform of BF01 from Bungarus fasciatus venom", "values": [{"measurement": "result", "result": "binds"}]}
